Data reported in paper PMC6231683.
For at least one entry, the source does not settle the construct or the ends of the probe.

Assays:
[1] = target: CovR (unphosphorylated) (UniProt O87527); experiment: EMSA; conditions: unphosphorylated, low molecular weight complex only, binding unchanged up to 5 uM, 37 C 15 min; recombinant protein; probe letters rebuilt from the primers and the genome
[2] = target: CovR~P (phosphorylated in vitro with acetyl phosphate) (UniProt O87527); experiment: EMSA; conditions: acetyl phosphate, progressively higher molecular weight complexes, high CovR~P needed, 37 C 15 min; recombinant protein; probe letters rebuilt from the primers and the genome

GACTTGTAAACAACTTACTTACATACATTACCTTGTATACCCTTCTTTTTAATTTTCTTGATTTTCTTGTTATTTCGTGAGGTATTTCGTTAAGTCAGTACGACCTATATTAAGAAAAAGTATACCATAAAATGCCTTTCAAATTCTTTCATTAAAATCCAAAAAACAGTCACGATCACGCATTTATTTCTTTTTGTTCATTATTTATAAAACATATTATAAAACGTGACCCAAAAATTGGATTTTTACCCATTTTTTATGCCATTTATGCTCTTTTTGTTTTAAAAGAGGTCTTATTTTATATTTTTTTTATATTTTTTGAACCTAATTTATCTTTTGTCACTAACTTAATTAGATTTTTTACATGCAATTCAATGTTTTTGACTGATTTCAGTTTTTAAGTTTGACTGTTATGGTACAACCATTAAAAATTCTATCATACTTCAGTCAATTTACACCAACATTAGCTCTTGAAAACGTTTCTACGATGTTTTTTATGAACTGGTTAACTTGTCTTTTTTCGTTGGC (double strand) [mga promoter PCR fragment (~500 bp)]
binding result [1]: binds
binding result [2]: binds
